Measurements published in patent publication US20230381142A1, “ANTILEISHMANIAL COMPOUNDS, COMPOSITIONS AND USE THEREOF” (TRUSTEES OF BOSTON UNIVERSITY, priority 2022, published 2023).

Tested on: L. donovani intracellular amastigotes infecting THP-1 macrophages
Test: GSK intramacrophage L. donovani assay (LD AMMAC, inMac; Assay Conditions C)
Assay type: cell-based, Leishmania donovani
Details: (LD MAC EC50)/(LD AMMAC EC50)
Protocol: Assay Conditions C: The intramacrophage Leishmania donovani activity assay was performed as described in Antimicrob Agents Chemother (2013) 57(7):2913-22.
The intramacrophage Leishmania donovani activity assay (LD AMMAC) at GlaxoSmithKline was performed as described.
Given the literature precedents described above and the apparent narrow tolerance for R^3 substitutions observed in the primary screen compounds, a thorough and methodical assessment was undertaken of tolerated groups at the three points of diversity (R^1/R^2/R^3) for the core. At this stage of the project, all analogues were assessed using a battery of assays performed in-house at GlaxoSmithKline. For antileishmanial activity, GSK's inMac assay was utilized. This assay provides two readouts of compound potency: average number of intracellular amastigotes per infected cell (AMMAC) EC50, percentage of infected cells per well (INFCELL) EC50, as well as a toxicity output derived from the number of host cells (MAC EC50). In addition, compounds were assessed for toxicity against HepG2 cells (HEPG2 EC50). Here, AMMAC EC50 values were focused on for relative potency assessments. […] It should be noted that for all compounds assessed in this project, the measured toxicity against THP-1 macrophages either equaled or exceeded that of HepG2 hepatocytes, therefore the MAC SI is used here as the more conservative estimate of therapeutic index.

| Structure (SMILES) | SI MAC |
| --- | --- |
| COc1ccc(CN2C(=O)c3[nH]nc(CC(C)C)c3C2c2ccc(F)cc2)cc1 (stereo not shown) [Compound 34] | >2.5 |
| CC(C)Cc1n[nH]c2c1C(c1ccc(F)cc1)N(c1ccc(Br)cc1)C2=O (stereo not shown) [Compound 24, 5-(4-bromophenyl)-4-(4-fluorophenyl)-3-isobutyl-4,5-dihydropyrrolo[3,4-c]pyrazol-6(1H)-one] | 12.2 |
| COc1ccc(N2C(=O)c3[nH]nc(CC(C)C)c3C2c2cccc(Br)c2)cc1 (stereo not shown) [Compound 60] | 3.2 |
| COc1ccc(N2C(=O)c3[nH]nc(CC(C)C)c3C2c2ccccn2)cc1 (stereo not shown) [Compound S7] | >1.6 |
| COc1ccc(N2C(=O)c3[nH]nc(CC(C)C)c3C2c2cncs2)cc1 (stereo not shown) [Compound S4] | >3.1 |
| COc1ccc(N2C(=O)c3[nH]nc(CC(C)C)c3C2c2ccccc2Cl)cc1 (stereo not shown) [Compound 55, 4-(2-chlorophenyl)-3-isobutyl-5-(4-methoxyphenyl)-4,5-dihydropyrrolo[3,4-c]pyrazol-6(1H)-one] | 15.3 |
| COc1ccc(N2C(=O)c3[nH]nc(CC(C)C)c3C2c2ccncn2)cc1 (stereo not shown) [Compound S8] | 1.0 |

Same assay, conditions: THP-1 CC50 / L. donovani EC50 (THP-1)

| Structure (SMILES) | SI Host cell potency/L. donovani potency |
| --- | --- |
| CC(C)Cc1n[nH]c2c1C(c1cccc(C(F)(F)F)c1)N(c1ccc(-n3ccnc3)cc1)C2=O (stereo not shown) [CMLD010924] | 0.8 |
| CC(C)Cc1nn(-c2ccc(OC(F)(F)F)cc2)c2c1C(c1ccccc1)NC2=O (stereo not shown) [CMLD009657] | 4.0 |
| COc1cccc(N2C(=O)c3[nH]nc(CC(C)C)c3C2C2CCCCC2)c1 (stereo not shown) [CMLD011044] | 7.9 |
| COc1ncc(N2C(=O)c3[nH]nc(CC(C)C)c3C2c2ccc(F)cc2)cc1C (stereo not shown) [CMLD011555] | 2.0 |

Same assay, conditions: rows whose L. donovani EC50 is in THP-1 cells (c)

| Structure (SMILES) | SI Host cell potency/L. donovani potency |
| --- | --- |
| COc1cc(N2C(=O)c3[nH]nc(CC(C)C)c3C2c2ccc(F)cc2)cc(OC)c1OC (stereo not shown) [CMLD010896] | 0.8 |
| CC(C)Cc1n[nH]c2c1C(c1ccc(F)cc1)N(c1ccc(OC(F)(F)F)cc1)C2=O (stereo not shown) [CMLD010885] | 2.5 |
| CC(C)Cc1n[nH]c2c1C(c1ccc(F)cc1)N(C(CO)CO)C2=O (stereo not shown) [BUCMD00817] | 1.0 |
| COc1ccc(N2C(=O)c3[nH]nc(CC(C)C)c3[C@@H]2c2ccc(F)cc2C)cc1 [CMLD010949] | 79.4 |
| COc1ccc(N2C(=O)c3[nH]nc(CC(C)C)c3C2c2ccc(F)cc2C)cc1 (stereo not shown) [BUCMD00800] | 50.1 |
| CC(C)Cc1n[nH]c2c1C(c1cccc(C(F)(F)F)c1)N(c1ccc3ncnn3c1)C2=O (stereo not shown) [BUCMD00804] | 6.3 |
| COc1ccccc1N1C(=O)c2[nH]nc(CC(C)C)c2C1c1ccccc1Cl (stereo not shown) [CMLD011130] | 1.6 |
| COc1ccccc1N1C(=O)c2[nH]nc(CC(C)C)c2C1c1cccc(C(F)(F)F)c1 (stereo not shown) [CMLD011141] | 2.5 |
| COc1ccc(N2C(=O)c3[nH]nc(CC(C)C)c3C2c2cc(F)nc(F)c2)cc1 (stereo not shown) [CMLD011028] | 1.0 |
| COc1ccc(N2C(=O)c3[nH]nc(CC(C)C)c3C2c2cccc(OC)c2)cc1 (stereo not shown) [CMLD011088] | 5.0 |
| COc1ccc(N2C(=O)c3[nH]nc(CC(C)C)c3C2c2ccccc2F)cc1 (stereo not shown) [CMLD011102] | 9.9 |
| CC(C)Cc1n[nH]c2c1C(c1ccc(F)cc1)N(c1ccc(C(C)(C)C)cc1)C2=O (stereo not shown) [BUCMD00816] | >5 |
| COc1ccccc1N1C(=O)c2[nH]nc(CC(C)C)c2C1c1ccsc1 (stereo not shown) [CMLD011138] | 2.0 |
| COc1ccc(N2C(=O)c3[nH]nc(CC(C)C)c3[C@@H]2c2cccc(C(F)(F)F)c2)cn1 [BUCMD00805] | 5.0 |
